From US20090162353A1 (MacroGenics, published 2009) come the findings set out here.

The target in this assay is vaccinia virus L1 recombinant protein (vaccinia virus, UniProt P07612 1-185).

B1: Ch8AH8AL (antibody, V domains shown)
VH: EVQLVESGGGLIKPGGSLRLSCAASGFIFRDYNINWVRQAPGKGLEWLGFIRTRASGRSTEYSASVKGRFTISRDDSKNIAYLHINSLKMEDTAVYYCAKKGDSYYYMDFWGKGTAVTVSS
VL: ELALTQPASVSGSPGQSITISCTGGRSDLGDSNFVSWYQQYPGKAPKLLIYQVNKRPSGVPDRFSASKSANTASLTISGLQTEDEADYFCSSYTTTSTYVFGIGTKVVVLG
B1: the binding result is given as “no binding (tested: 1 ug/ml)”.
